Measurements reported in PubChem BioAssay AID504761 (Drosophila RNAi Screening Center, 2011).
Purpose: 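Insect host genes that dengue virus relies on to spread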 (primary screen). Cell system: D.Mel-2 cells from Drosophila. Knock-down reagent: long dsRNA against Drosophila genes. Challenge: infection with dengue virus type 2; dose and infection time not stated. Read-out: 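Cells stained for dengue envelope protein and imaged; percent of infected cells per well on duplicate plates, ranked by infection, with stained nuclei counted for cell number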. Reading the numbers: infection score: higher = more virus-infected cells; cell count: higher = more cells in the well. Call rule: 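Very low infection ranking in both replicate wells (chance probability at most 0.065), then a retest showing infection dropped 1.5-fold or more at p below 0.05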. Meaning of the calls: active = confirmed: knock-down lowers infection; inactive = not picked or not confirmed.
The screen tested about 22,000 reagents; below is a random part of those with a known target gene and a result. Of all reagents, 116 (0.52%) were called active. 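Calls depend on retest data that are not deposited; infection was ranked per plate without normalising between plates; the unit of the infection score is not given.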 Raw values are not corrected between plates. Names joined by + are all predicted targets of the reagent. Not all columns of the deposit are shown. Not given: the amount of reagent, the time to read-out.

no.	target gene	dsRNA	infection score, replicate 1	infection score, replicate 2	cell count, replicate 1	Outcome
1	Cpr11B (GeneID 32203)	DRSC19859	1.12	1.95	6531	inactive
2	N (GeneID 31293)	DRSC18685	1.09	7	6173	inactive
3	CG33191 + Pif1B	DRSC12706	5.58	3.05	5945	inactive
4	CG15373 (GeneID 32784)	DRSC19663	8.44	5.92	4255	inactive
5	CG18788 (GeneID 59164)	DRSC02697	4.99	4.38	6149	inactive
6	CG6878 (GeneID 39656)	DRSC10737	1	3.04	6393	inactive
7	CG7872 (GeneID 32493)	DRSC20062	7.21	3.48	6494	inactive
8	Srp54k (GeneID 38593)	DRSC11289	0.23	1.16	6017	inactive
9	Prestin (GeneID 39996)	DRSC10507	3.95	1.87	6248	inactive
10	CG2931 (GeneID 40673)	DRSC12324	16.7	14.1	5602	inactive
11	Gel (GeneID 46008)	DRSC12350	15.8	34	4055	inactive
12	Gel (GeneID 46008)	DRSC24569	0.48	0.67	6443	inactive
13	PNKP (GeneID 40994)	DRSC16512	6.73	5.19	6836	inactive
14	Nup35 (GeneID 32851)	DRSC19999	1.76	2.15	6829	inactive
15	CG10877 (GeneID 42432)	DRSC14274	1.93	4.43	6890	inactive
16	CG32591 (GeneID 318104)	DRSC19063	0.08	2.8	6243	inactive
17	Nup37 (GeneID 43040)	DRSC14419	9.97	1.08	6017	inactive
18	Fbxl7 (GeneID 41935)	DRSC15553	2.1	6.48	6097	inactive
19	Fbxl7 (GeneID 41935)	DRSC25664	13.1	7.07	6752	inactive
20	CG10359 (GeneID 38434)	DRSC08156	10.4	1.55	3834	inactive
21	msd5 (GeneID 38156)	DRSC08560	3.18	1.54	5310	inactive
22	msd5 (GeneID 38156)	DRSC26406	1.17	3.71	6233	inactive
23	CG4456 + Hsp22	DRSC11187	4.97	2.1	6114	inactive
24	CG4456 + Hsp22	DRSC11192	20.4	12.6	5367	inactive
25	ms(3)K81 (GeneID 43232)	DRSC14746		7.96	325	inactive
26	Vps13B (GeneID 43550)	DRSC15060	6.51	4.97	5657	inactive
27	Hr38 (GeneID 35332)	DRSC23230	1.31	7.44	6970	inactive
28	Hr38 (GeneID 35332)	DRSC28077	4.58	9.3	6857	inactive
29	CG18417 (GeneID 38829)	DRSC10319	2.12	4.44	5754	inactive
30	CG18417 (GeneID 38829)	DRSC23997	4.26	2.72	6449	inactive
31	yps (GeneID 39377)	DRSC25035	3.13	3.57	6043	inactive

The list goes on; the last 8 above are carried over.
no.	target gene	dsRNA	infection score, replicate 1	infection score, replicate 2	cell count, replicate 1	Outcome
24	CG4456 + Hsp22	DRSC11192	20.4	12.6	5367	inactive
25	ms(3)K81 (GeneID 43232)	DRSC14746		7.96	325	inactive
26	Vps13B (GeneID 43550)	DRSC15060	6.51	4.97	5657	inactive
27	Hr38 (GeneID 35332)	DRSC23230	1.31	7.44	6970	inactive
28	Hr38 (GeneID 35332)	DRSC28077	4.58	9.3	6857	inactive
29	CG18417 (GeneID 38829)	DRSC10319	2.12	4.44	5754	inactive
30	CG18417 (GeneID 38829)	DRSC23997	4.26	2.72	6449	inactive
31	yps (GeneID 39377)	DRSC25035	3.13	3.57	6043	inactive
32	trem (GeneID 42392)	DRSC15575	2.05	0.44	6588	inactive
33	CG32718 (GeneID 318168)	DRSC17538	8.41	3.09	6471	inactive
34	CG13004 (GeneID 32673)	DRSC19523	2.13	2.13	6237	inactive
35	CG1113 (GeneID 40629)	DRSC12163	8.98	1.16	6078	inactive
36	Ir75b (GeneID 8673994)	DRSC10189	4.02	3.79	6397	inactive
37	Lint-1 (GeneID 32055)	DRSC19822	0.99	1.53	5679	inactive
38	Lint-1 (GeneID 32055)	DRSC28176	17	18.4	5513	inactive
39	CG13560 (GeneID 37758)	DRSC04198	3.52	3.85	6474	inactive
40	CG13560 (GeneID 37758)	DRSC27479	16.8	9.65	2630	inactive
41	CG4199 (GeneID 31174)	DRSC18519	2.55	0.6	6003	inactive
42	CG4199 (GeneID 31174)	DRSC21314	0.61	2.63	6210	inactive
43	CG4199 (GeneID 31174)	DRSC27951	4.05	9.66	6672	inactive
44	Jhbp16 (GeneID 42552)	DRSC15039	4.37	0.54	6566	inactive
45	CG2059 (GeneID 31663)	DRSC18203	5.73	2.87	6771	inactive
46	zen (GeneID 40828)	DRSC12632	0.65	6.99	6620	inactive
47	zen (GeneID 40828)	DRSC23673	2.08	2.4	6206	inactive
48	CG1161 (GeneID 40638)	DRSC24956	1.64	2.44	6280	inactive
49	CG6294 + CG6299 + CG15642	DRSC19981			422	inactive
50	fan (GeneID 43926)	DRSC10930	3.97	5.1	5888	inactive
51	comm2 (GeneID 39716)	DRSC10877	1.14	0.8	5807	inactive
52	CG3955 (GeneID 36438)	DRSC06859	3.74	2.71	6066	inactive
53	CG8142 (GeneID 32763)	DRSC20086	20.3	1.13	3910	inactive
54	CG8142 (GeneID 32763)	DRSC26373	8.83	5.95	4904	inactive
55	CG31921 (GeneID 319027)	DRSC00013	6.11	3.02	6215	inactive
56	CG31099 (GeneID 326117)	DRSC14252	3.06	10.7	6853	inactive
57	CG31099 (GeneID 326117)	DRSC23973	2.9	1.24	6789	inactive
58	tai (GeneID 34242)	DRSC02673	2.42	3.41	6152	inactive
